The values that follow come from publication PMC6805555, “Characterization of resistance to a potent D-peptide HIV entry inhibitor” (Retrovirology, 2019).

Structures are written as SMILES. “Also recorded” adds a separate entry of the source.

This series deals with IQN17 Q577R (HIV-1 N-trimer pocket mimic). Briefly: Crystal structure of PIE12 with Q577R IQN17 (PDB 6PSA), buried surface area and hydrogen bonds. The following applies: 1.3 Å resolution.

Consider `CC(=O)N[C@H](Cc1c[nH]cn1)C(=O)N1CCC[C@@H]1C(=O)N[C@@H]1CSSC[C@H](C(=O)N[C@H](CCC(=O)O)C(=O)N[C@H](CC(C)C)C(=O)NCC(=O)N[C@H](CCCCN)C(N)=O)NC(=O)[C@@H](CC(C)C)NC(=O)[C@@H](Cc2c[nH]c3ccccc23)NC(=O)[C@@H](CCC(N)=O)NC(=O)[C@@H](Cc2c[nH]c3ccccc23)NC(=O)[C@@H](CCC(=O)O)NC(=O)[C@H]2CCCN2C(=O)[C@@H](Cc2ccc(O)cc2)NC(=O)[C@@H](CC(=O)O)NC1=O` [PIE12], for which the hydrogen bonds entry was “loss of two hydrogen bonds; also recorded: Q577R disrupts these hydrogen bonds”.
